Article PMC8880671, “Facial Synthesis and Bioevaluation of Well-Defined OEGylated Betulinic Acid-Cyclodextrin Conjugates for Inhibition of Influenza Infection” (Molecules, 2022)

Chains of the proteins cited; added tags and fusions are not shown. Residues count along the entry.
UniProt P03454, 18-565: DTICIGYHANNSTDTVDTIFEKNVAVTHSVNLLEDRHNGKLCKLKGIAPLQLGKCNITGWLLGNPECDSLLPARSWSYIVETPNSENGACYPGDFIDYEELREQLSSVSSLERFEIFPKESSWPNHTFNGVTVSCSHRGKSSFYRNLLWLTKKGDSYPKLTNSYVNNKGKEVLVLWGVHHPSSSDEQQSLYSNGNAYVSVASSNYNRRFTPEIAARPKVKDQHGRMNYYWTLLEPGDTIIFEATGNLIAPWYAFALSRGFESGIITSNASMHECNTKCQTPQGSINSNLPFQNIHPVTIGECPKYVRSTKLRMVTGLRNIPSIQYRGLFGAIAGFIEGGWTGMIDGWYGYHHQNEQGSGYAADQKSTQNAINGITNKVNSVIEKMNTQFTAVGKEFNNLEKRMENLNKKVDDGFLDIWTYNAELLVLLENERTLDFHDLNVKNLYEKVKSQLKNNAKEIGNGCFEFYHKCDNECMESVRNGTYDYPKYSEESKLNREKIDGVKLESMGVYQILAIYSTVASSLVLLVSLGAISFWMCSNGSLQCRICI

Target: influenza HA protein (Influenza A virus, UniProt P03454)
Conditions: read-out: KD for influenza HA protein; SPR, HA immobilized on CM5 chip (Figure S2)

Substance	Kd [µM]
Octakis 6-Deoxy-6-[4-N-[(3,6,9,12,15,18-Hexaoxaheneicos-20-yn-1-yl)-3β-hydroxy-lup-20(29)-en-28-oyl]-aminomethyl-1H-1,2,3-triazol-1-yl]-γ-CD [Compound 83]	> 10
Hexakis 6-Deoxy-6-[4-N-[(3,6,9,12,15,18-Hexaoxaheneicos-20-yn-1-yl)-3β-hydroxy-lup-20(29)-en-28-oyl]-aminomethyl-1H-1,2,3-triazol-1-yl]-α-CD [Compound 81]	> 10
